Data on one sequence can be found in article PMC6224051.

The exact form of at least one protein or probe is not confirmed.

The test system of this series is GST-TRP47 full-length (Ehrlichia chaffeensis). The series can be described thus: EMSA. The note with it: competed by 100-250x unlabeled P4, supershifted by anti-TRP47; 10 mM Tris, 50 mM KCl, 1 mM DTT, 5 mM MgCl2, 2.5% glycerol, 0.05% NP-40, 25 ng/ul poly(dI-dC), 4 C, 1 h; pH not stated; up to 2500 pM probe, up to 10 ug protein; recombinant protein; protein details: N-terminal GST (pGEX-6P-1); label: biotin. On the technique in general: In EMSA bound probe runs differently from free probe, usually more slowly.

As to “TCCGCCTCCCGGGTTCACGCCATTCTCCGTCTAA (double strand) [P4]”, the binding result is on record as “binds”.
